## Genome-wide point mutation profile of HIV-1: Vpr

Protein: Vpr of HIV-1 NL4-3, numbered from its first residue. The source prints no sequence; the chain below is taken from UniProt P12520, a closely related isolate, and fits the source at the 71 positions it covers.
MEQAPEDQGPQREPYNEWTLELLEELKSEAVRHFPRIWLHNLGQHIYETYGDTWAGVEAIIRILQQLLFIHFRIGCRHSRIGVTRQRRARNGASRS
"Other frame" gives the effect on an overlapping gene as the source lists it; other overlaps (genes, RNA elements) are not shown.

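Random point mutant libraries of HIV-1 NL4-3, one for each of seven fragments, were passaged in CEM T lymphocytes. The RC index is the frequency of a change after passage round 2 divided by its frequency in the plasmid library.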

Values are the RC index; higher means better tolerated. The authors read about 0.1 or less as lethal, 0.1-0.2 as attenuated and 0.2 or more as tolerated.
A change reads original residue, position, new residue.
Input reads are the counts in the plasmid library.
Base changes are numbered along pNL4-3.
An index over 1, which the authors read as above wild type, was rare (1.9% of all changes in the genome).
Since each clone held several changes (about five per kb), neutral changes can read low.

substitution,base,other frame,input reads,RC index
H71L,A5770T,none,276,0.0983
W38C,G5672T,none,131,0.107
E58G,A5731G,none,474,0.0676
L39F,C5673T,none,561,0.0464
R80K,G5797A,none,228,0.278
H78L,A5791T,none,420,0.371
R90S,A5828T,none,314,0.0576
L42S,T5683C,none,341,0.106
I81T,T5800C,none,230,0.496
G82V,G5803T,none,80,0.0679
I37K,T5668A,none,278,0.0432
G43R,G5685A,none,280,0.701
E29D,A5645T,none,129,0.0931
F34Y,T5659A,none,485,0.0495
R90G,A5826G,none,532,0.252
R87T,G5818C,none,70,0.0776
S79C,A5793T,none,241,0.0300
D52N,G5712A,none,222,0.424
T49I,C5704T,none,378,0.778
E24V,A5629T,none,281,0.0499
C76Y,G5785A,none,266,0.367
A89S,G5823T,none,114,0.175
F72L,T5772C,none,355,0.127
I70F,A5766T,none,182,0.0597
G56E,G5725A,none,214,0.374
R88G,A5820G,none,395,0.238
R80I,G5797T,none,261,0.146
F34I,T5658A,none,472,0.0763
L26F,C5634T,none,399,0.110
R87M,G5818T,none,267,0.0949
K27M,A5638T,none,511,0.0274
I70T,T5767C,none,158,0.115
Q44R,A5689G,none,379,0.0739
T49S,A5703T,none,262,0.0306
W18R,T5610C,Vif silent,677,0.0530
H40N,C5676A,none,175,0.183
T84N,C5809A,none,108,0.134
R85Q,G5812A,none,227,0.399
Q44K,C5688A,none,57,0.211
W54G,T5718G,none,114,0.0351
S79N,G5794A,none,288,0.189
N16Y,A5604T,Vif silent,778,0.0577
V57L,G5727C,none,34,0.118
E29K,G5643A,none,168,1.27
T84A,A5808G,none,200,0.0995
R88S,A5822T,none,290,1.29
H40Y,C5676T,none,228,0.0702
S79R,C5795A,none,70,0.103
L22I,C5622A,none,107,0.206
N41I,A5680T,none,343,0.0350
E6K,G5574A,Vif silent,146,0.878
C76F,G5785T,none,38,0.381
V31D,T5650A,none,503,0.0438
L22V,C5622G,none,116,0.0345
P5S,C5571T,Vif silent,273,0.0580
H33N,C5655A,none,73,0.0823
I46T,T5695C,none,247,0.316
W54R,T5718A,none,440,0.0227
A89G,C5824G,none,39,0.557
E24A,A5629C,none,77,0.0520
L22F,C5622T,none,467,0.120
R87W,A5817T,none,200,0.362
Y50C,A5707G,none,194,0.268
F34L,T5660A,none,271,0.0665

A selection of 5 entries from above:

{"substitution": "W38C", "base": "G5672T", "other frame": "none", "input reads": "131", "RC index": 0.107}
{"substitution": "V57L", "base": "G5727C", "other frame": "none", "input reads": "34", "RC index": 0.118}
{"substitution": "I37K", "base": "T5668A", "other frame": "none", "input reads": "278", "RC index": 0.0432}
{"substitution": "H71L", "base": "A5770T", "other frame": "none", "input reads": "276", "RC index": 0.0983}
{"substitution": "H78L", "base": "A5791T", "other frame": "none", "input reads": "420", "RC index": 0.371}

Values reported by Al-Mawsawi et al. 2014 (doi:10.1186/s12977-014-0124-6).